Pooled drug test results. Numbers come from NIAID ChemDB, via PubChem.

Shared fields: growth or infection tests; agent: Mouse cytomegalovirus; method: plaque count; measure: EC50

ECn is the concentration giving n% inhibition of infection, replication or growth.

| structure | cells | strain or isolate | result |
|---|---|---|---|
| C=CCOc1nc(N)nc2c1ncn2/C=C1/C[C@@H]1CO | MEF | - | 0.3 µM |
| Nc1nc2c(ncn2COC(CO)CCP(=O)(O)O)c(=O)[nH]1 | MRC-5 | SMITH | 1.3 µM |
| Nc1nc(NC2CC2)c2ncn(C=C3CC3CO)c2n1 | MEF | - | 0.37 µM |
| CCCCCOc1nc(N)nc2c1ncn2/C=C1/C[C@@H]1CO | MEF | - | 1.4 µM |
| CN(C)c1cccc2c(S(=O)(=O)Nc3ccc(NC(=O)C(C)(C)CO)cc3)cccc12 | - | SMITH | 0.049 µM |
| CCCOc1nc(N)nc2c1ncn2/C=C1/C[C@@H]1CO | MEF | - | <0.1 µM |
| CCCCCCCC/C=C\CCCCCCCOCCCOP(=O)(O)CO[C@H](CO)Cn1ccc(N)nc1=O | MEF | - | 0.004 µM |
| Nc1nc2c(ncn2COC2COP(=O)(O)OC2)c(=O)[nH]1 | MRC-5 | SMITH | 1.6 µM |
| Cn1cc(C(=O)NCc2ccc(Cl)cc2)c(=O)c2cc(CN3CCOCC3)ccc21 | 10T1/2 | SMITH | 0.7 µM |
| CCCCCCCCCCCCOCCCOP(=O)(O)CO[C@H](CO)Cn1ccc(N)nc1=O | MEF | - | 0.01 µM |
| Nc1nc(Cl)c2ncn(/C=C3/C[C@H]3CO)c2n1 | MEF | - | 0.27 µM |
| CNc1cccc2c(S(=O)(=O)Nc3ccc(NC(=O)C(C)(C)CF)cc3)cccc12 | - | BAY 38-4766-resistant | 14.7 µM |
| Nc1nc2c(ncn2C[C@@H]2CC[C@@H](P(=O)(O)O)O2)c(=O)[nH]1 | 3T3-L1 | SMITH | 0.03 µg/mL |
| CCCCCCCCCCCCCCCCCCOCCCOP1(=O)CO[C@@H](Cn2ccc(N)nc2=O)CO1 | MEF | - | 0.05 µM |
| Nc1ccn(C[C@@H](CO)OCP(=O)(O)O)c(=O)n1 | 3T3-L1 | SMITH | 0.03 µg/mL |
| CCCCCCCC/C=C\CCCCCCCOCCOP1(=O)CO[C@@H](Cn2ccc(N)nc2=O)CO1 | MEF | - | 0.001 µM |
| Nc1ncnc2c1ncn2C=C1CC1CO | MEF | - | 2.1 µM |
| Nc1nc2c(ncn2COC(CO)CO)c(=O)[nH]1 | 10T1/2 | SMITH | 3.7 µM |
| COC(=O)[C@H](C)NP(=O)(OCC1C/C1=C/n1cnc2c(NC3CC3)nc(N)nc21)Oc1ccccc1 | MEF | - | 0.93 µM |
| O=C(NO)c1ccc(O)c(O)c1 | - | Drug-resistant | 28.88 µM |
| CCCCCCCCCCCCCCCCCCOC[C@H](COP(=O)(O)CO[C@H](CO)Cn1ccc(N)nc1=O)OCc1ccccc1 | MEF | - | 0.005 µM |
| CC(C)Nc1nc2cc(Cl)c(Cl)cc2n1[C@H]1O[C@@H](CO)[C@H](O)[C@@H]1O | HFF | SMITH (WILD TYPE) | 28.5 µM |
| Nc1nc(OCC2CC2)c2ncn(/C=C3/C[C@@H]3CO)c2n1 | MEF | - | 0.3 µM |
| Nc1nc(OCC2CC2)c2ncn(/C=C3/C[C@@H]3CO)c2n1 | MEF | - | 0.3 µM |
| C#CCNc1nc(N)nc2c1ncn2/C=C1/C[C@@H]1CO | MEF | - | 0.4 µM |
| Nc1nc2c(ncn2/C=C2/CC2(CO)CO)c(=O)[nH]1 | MEF | - | 9.7 µM |
| Nc1nc2c(ncn2C=C2CC2CO)c(=O)[nH]1 | MEF | - | 0.3 µM |
| Nc1nc(NC2CC2)c2ncn(/C=C3/C[C@@H]3CO)c2n1 | MEF | - | 0.1 µM |
| O=C(NCc1ccc(Cl)cc1)c1c[nH]c2c(F)cccc2c1=O | - | - | 6.8 µM |
| CN(C)c1cccc2c(S(=O)(=O)Nc3ccc(NC(=O)C(C)(C)CO)cc3)cccc12 | HFF | SMITH (WILD TYPE) | 0.05 µM |
| COC(=O)[C@H](C)NP(=O)(OC[C@H]1C/C1=C/n1cnc2c(OC)nc(N)nc21)Oc1ccccc1 | MEF | - | 0.24 µM |
| OC[C@H]1O[C@@H](n2c(Br)nc3cc(Cl)c(Cl)cc32)[C@H](O)[C@@H]1O | HFF | SMITH (WILD TYPE) | 31 µM |
| Nc1nc2c(ncn2COC(CO)CO)c(=O)[nH]1 | MEF | - | 5.2 µM |

The first 3 rows once more:

structure,cells,strain or isolate,result
C=CCOc1nc(N)nc2c1ncn2/C=C1/C[C@@H]1CO,MEF,-,0.3 µM
Nc1nc2c(ncn2COC(CO)CCP(=O)(O)O)c(=O)[nH]1,MRC-5,SMITH,1.3 µM
Nc1nc(NC2CC2)c2ncn(C=C3CC3CO)c2n1,MEF,-,0.37 µM

Rows are shuffled and stem from different studies. Blank or dashed fields: not listed here.